Values from PubChem BioAssay AID1259414 (Drosophila RNAi Screening Center, 2018).
The screen tested about 24,000 reagents; this is a random part of those with a known target gene and a result. Over the whole deposit, about 1,210 (5%) are marked active. 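Inactive calls also include excluded dsRNAs with several or no targets, genes unexpressed in JW18, and well A1, regardless of score.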 A number with no mark means an inactive call. A plus sign joins genes that one reagent is predicted to hit.

- Test: 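Genome-wide screen for host control of endosymbiont load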 (primary screen)
- Cells: Drosophila JW18 cells infected with Wolbachia
- Reagents: long dsRNA against Drosophila genes, 0.25 µg dsRNA per well of a 384-well plate
- Timing: 5 days
- Treatment: cells persistently infected with Wolbachia before knock-down; no added drug
- Measurement: 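Imaged fluorescence in situ signal for Wolbachia 23S rRNA per DAPI-counted host cell, given as a robust z-score within each plate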
- Direction: Wolbachia per cell robust z: higher = more Wolbachia per host cell than the plate typical
- Call rule: 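Hit when robust z is 1.5 or more, or -1.5 or less, in at least two of three replicates; excludes dsRNAs with several or no targets, genes not expressed in JW18 and well A1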

| gene knocked down | dsRNA | Wolbachia per cell robust z, rep 1 | Wolbachia per cell robust z, rep 2 | Wolbachia per cell robust z, rep 3 |
| --- | --- | --- | --- | --- |
| Slob (Slowpoke binding protein) | DRSC02296 | 0.186 | -0.919 | -4.68 |
| Slob (Slowpoke binding protein) | DRSC03436 | 0.963 | -0.925 | -0.0995 |
| CG14655 | DRSC12241 | 0.0489 | -0.0305 | 1.36 |
| CG14655 | DRSC29900 | -0.479 | -0.00105 | 1.29 |
| CG13506 | DRSC04150 | -0.169 | -5.89 | 1.14 |
| AhcyL2 (Adenosylhomocysteinase like 2) | DRSC14107 | -0.368 | 1.53 | 1.32 |
| Rilpl (Rab interacting lysosomal protein like) | DRSC18494 | -0.288 | -0.548 | -0.0794 |
| CG31776 | DRSC00716 | -0.157 | 0.937 | -1.22 |
| Vha36-3 (Vacuolar H[+] ATPase 36kD subunit 3) | DRSC18615 | 1.5 | -0.29 | 0.822 |
| Vha36-3 (Vacuolar H[+] ATPase 36kD subunit 3) | DRSC28636 | 0.0323 | 0.941 | -0.0136 |
| Hacd2 (3-hydroxyacyl-CoA dehydratase 2) | DRSC03181 | -1.1 | -5.91 | -0.955 |
| CheA29a (Chemosensory protein A 29a) | DRSC21486 | 0.0442 | 0.211 | -0.99 |
| Mtpalpha (Mitochondrial trifunctional protein alpha subunit) | DRSC01994 | 0.117 | -0.207 | 0.561 |
| CG1791 | DRSC18141 | 0.608 | -8.1 | 1.61 |
| CG1791 | DRSC29301 | -0.348 | 0.354 | 1.5 |
| Ravus | DRSC15126 | 0.752 | 0.849 | -1.46 |
| GABA-B-R2 (metabotropic GABA-B receptor subtype 2) | DRSC14134 | 0.232 | -3.9 | -0.368 |
| GABA-B-R2 (metabotropic GABA-B receptor subtype 2) | DRSC28127 | 0.127 | 0.149 | 0.421 |
| Cyp9h1 (Cytochrome P450 9h1) | DRSC07391 | 0.867 | 0.83 | 0.472 |
| Cyp9h1 (Cytochrome P450 9h1) | DRSC26493 | -0.909 | -0.589 | 1.5 |
| CG2698 | DRSC15447 | 0.304 | -7.06 | 0.398 |
| CG42592 | DRSC41366 | 0.122 | -0.319 | -0.711 |
| CG1999 | DRSC18199 | 0.676 | -0.684 | -0.509 |
| CG1999 | DRSC29137 | -0.449 | 0.954 | 0.1 |
| Polr3E (RNA polymerase III subunit E) | DRSC11880 | 1.19 | -0.511 | 1.05 |
| Polr3E (RNA polymerase III subunit E) | DRSC23914 | 0.851 | 1.41 | 1.31 |
| CG6739 | DRSC02987 | -1.83 | -0.0785 | 0.288 |
| CG11779 | DRSC14384 | 1.5 | 1.58 | 0.478 |
| Coq9 (Coenzyme Q9) | DRSC22913 | -3.56 | 0.23 | -0.138 |
| CG3491 | DRSC01934 | 0.363 | 0.117 | -0.218 |
| CG8141 | DRSC16387 | -0.199 | 0.209 | 0.322 |
| Nxt1 (NTF2-related export protein 1) | DRSC04630 | -1.62 | 0.422 | 0.196 |
| Nxt1 (NTF2-related export protein 1) | DRSC28865 | -0.166 | 0.543 | 0.719 |
| CG5399 | DRSC15791 | -0.338 | 0.614 | 0.543 |
| CG5399 | DRSC25357 | -0.256 | -0.943 | 0.0691 |
| 5-HT1B (5-hydroxytryptamine (serotonin) receptor 1B) | DRSC05031 | 0.976 | -2.21 | 1.83 |
| 5-HT1B (5-hydroxytryptamine (serotonin) receptor 1B) | DRSC05769 | 1.04 | 2.84 | 4.8 |
| 5-HT1B (5-hydroxytryptamine (serotonin) receptor 1B) | DRSC25996 | -0.524 | -0.484 | -0.255 |
| Or56a (Odorant receptor 56a) | DRSC07495 | -0.0748 | -0.148 | -1.45 |
| CG14546 | DRSC14890 | -0.00737 | 0.538 | 1.53 |
| PhKgamma (Phosphorylase kinase gamma) | DRSC20268 | 0.199 | 0.758 | -0.595 |
| PhKgamma (Phosphorylase kinase gamma) | DRSC27226 | 0.0466 | -0.459 | -0.582 |
| rngo (rings lost) | DRSC19903 | -1.7 (active) | -1.58 | 0.83 |
| rngo (rings lost) | DRSC26936 | -0.859 | 0.00974 | -0.363 |
| TFAM (mitochondrial transcription factor A) | DRSC15552 | -7.48 | 0.613 | -0.627 |
| TFAM (mitochondrial transcription factor A) | DRSC26903 | 0.3 | 0.00202 | -1.28 |
| CG10943 | DRSC09805 | 0.00297 | -0.306 | -0.791 |
| CG10943 | DRSC29258 | -1.1 | -0.275 | 0.431 |
| CG7945 | DRSC10934 | 1.45 | -1.18 | -1.37 |
| CG9886 | DRSC00732 | -0.15 | 0.693 | -1.03 |
| CG9886 | DRSC26380 | -0.354 | 0.99 | -0.542 |
| CG9886 | DRSC41580 | 0.253 | -2.83 | -1.75 |
| CG13324 + CG13323 | DRSC29000 | 1.11 | -6.97 | -1.22 |
| Or98P (Odorant receptor 98a pseudogene) | DRSC22948 | -0.38 | 0.712 | 0.402 |
| Or98P (Odorant receptor 98a pseudogene) | DRSC25899 | -1.09 | -1.85 | -0.406 |
| CG31542 + CG34277 | DRSC21544 | -1.64 | -0.124 | -0.0544 |
| TTLL6B (Tubulin tyrosine ligase-like 6B) | DRSC15932 | -0.321 | 0.867 | 0.723 |
| TTLL6B (Tubulin tyrosine ligase-like 6B) | DRSC26754 | 0.79 | 0.407 | 1.39 |
| Efhc1.1 (EF-hand domain containing 1.1) | DRSC20135 | -0.551 | -0.0277 | 0.342 |
| HBS1 | DRSC08544 | 0.325 | 0.678 | 0.445 |
| HBS1 | DRSC28426 | -1.44 | -0.793 | -1.23 |
| CG13288 | DRSC09962 | 0.285 | -2.69 | -0.465 |
| FeCH (Ferrochelatase) | DRSC16948 | 0.544 | -0.103 | -1.6 |
| FeCH (Ferrochelatase) | DRSC27562 | 0.0226 | 0.258 | -0.393 |
| CG13516 | DRSC04159 | -3.48 | 1.45 | 0.693 |
| Or33b (Odorant receptor 33b) | DRSC03387 | 1.04 | 0.479 | -5.94 |
| CG34248 | DRSC09426 | -1.93 | -0.845 | -1.7 |
| CG42335 | DRSC14597 | 1.37 | 0.452 | 0.519 |
| CG42335 | DRSC15892 | 1.43 | -0.785 | -2.04 |
| CG42335 | DRSC25666 | 0.884 | 1.21 | 0.825 |

Entries listed so far with an active call:
| gene knocked down | dsRNA | Wolbachia per cell robust z, rep 1 | Wolbachia per cell robust z, rep 2 | Wolbachia per cell robust z, rep 3 |
| --- | --- | --- | --- | --- |
| rngo (rings lost) | DRSC19903 | -1.7 (active) | -1.58 | 0.83 |
